How the values were obtained:
[1] = biological target: Rv1747 FHA regulatory domain (residues 1-310), phosphomimetic mutant T152E (Mycobacterium tuberculosis H37Rv, UniProt O65934 1-310, T152E); experiment: SAXS
[2] = biological target: Rv1747 FHA regulatory domain (residues 1-310), phosphomimetic mutant T210E (Mycobacterium tuberculosis H37Rv, UniProt O65934 1-310, T210E); experiment: SAXS

B1: autophosphorylated cytoplasmic catalytic domain of Mtb PknF (cPknF*, residues 1-299) (domain or fragment)
chain: MPLAEGSTFAGFTIVRQLGSGGMGEVYLARHPRLPRQDALKVLRADVSADGEYRARFNREADAAASLWHPHIVAVHDRGEFDGQLWIDMDFVDGTDTVSLLRDRYPNGMPGPEVTEIITAVAEALDYAHERRLLHRDVKPANILIANPDSPDRRIMLADFGIAGWVDDPSGLTATNMTVGTVSYAAPEQLMGNELDGRADQYALAATAFHLLTGSPPFQHANPAVVISQHLSASPPAIGDRVPELTPLDPVFAKALAKQPKDRYQRCVDFARALGHRLGGAGDPDDTRVSQPVAVAAPA
modifications: up to seven phosphate groups incorporated by autophosphorylation (intact mass 33 378 Da); sites not determined
[1]
  binding result: binds
[2]
  binding result: binds
